This note sets out measurements from patent US10889556B2, “Compositions and methods for inhibiting influenza RNA polymerase PA endonuclease” (The Regents of the University of California, priority 2016, dated 2021).

This assay has as its target influenza PA endonuclease (Influenza A virus, UniProt C3W5S0). The assay can be described thus: Endonuclease activity assay (FAM/TAMRA ssDNA-oligo fluorescence). Format: biochemical, Pandemic H1N1 influenza A.

Each structure is given as a SMILES string. The match of structure and compound is tentative.

In general, IC50 refers to the concentration that inhibits the measured activity by half. Low values mean greater potency in that assay, high ones weaker potency in that assay. For orientation: pIC50 means −log10 of the IC50, conventionally taken in molar units. On to `Cc1cc(=O)c(O)cn1-c1ccc(-c2ccccc2)cc1`, for which the IC50 worked out at 1300 nM. Where the note is “Table 4”, this compound came in with a pIC50 of 5.9.
